A mixed list of measured activities; the numbers were collected in NIAID ChemDB.

Shared fields: tests in culture; organism: Mycobacterium fortuitum; measure: MIC90

Neighbouring rows are from separate reports.

SMILES	strain	read by	value
COc1ccc(/C=N/n2c(C)nc3onc(C)c3c2=O)cc1	PCM 672	resazurin	>100 µg/mL
CCc1cc(C(N)=S)ccn1	18 strains	-	≥64 µg/mL
CC[C@H]1OC(=O)[C@H](C)[C@@H](O[C@H]2C[C@@](C)(OC)[C@@H](O)[C@H](C)O2)[C@H](C)[C@@H](O[C@@H]2O[C@H](C)C[C@H](N(C)C)[C@H]2O)[C@](C)(O)C[C@@H](C)CN(C)[C@H](C)[C@@H](O)[C@]1(C)O	25 isolates	-	>8 µg/mL
Cc1noc2nc(C)n(/N=C/c3ccc(Cl)cc3Cl)c(=O)c12	PCM 672	resazurin	>100 µg/mL
NC[C@H]1O[C@H](O[C@H]2[C@H](O)[C@@H](O[C@H]3O[C@H](CO)[C@@H](O)[C@H](N)[C@H]3O)[C@H](N)C[C@@H]2N)[C@H](N)C[C@@H]1O	31 isolates	-	>64 µg/mL
NC1CCN(c2c(F)cc3c(=O)c(C(=O)O)cn(C4CC4)c3c2Cl)C1	25 isolates	-	2 µg/mL
Cc1noc(N)c1C(=O)N/N=C/c1ccc(Cl)cc1	PCM 672	resazurin	>100 µg/mL
CC[C@H]1OC(=O)[C@H](C)[C@@H](O[C@H]2C[C@@](C)(OC)[C@@H](O)[C@H](C)O2)[C@H](C)[C@@H](O[C@@H]2O[C@H](C)C[C@H](N(C)C)[C@H]2O)[C@](C)(OC)C[C@@H](C)C(=O)[C@H](C)[C@@H](O)[C@]1(C)O	25 isolates	-	>8 µg/mL
NC[C@H]1O[C@H](O[C@H]2[C@H](O)[C@@H](O[C@H]3O[C@H](CO)[C@@H](O)[C@H](N)[C@H]3O)[C@H](N)C[C@@H]2N)[C@H](O)[C@@H](O)[C@@H]1O	31 isolates	-	>64 µg/mL
C[C@@H]1CN(c2c(F)c(N)c3c(=O)c(C(=O)O)cn(C4CC4)c3c2F)C[C@H](C)N1	20 strains	-	1.56 µg/mL
CC(C)N=c1cc2n(-c3ccc(Cl)cc3)c3ccccc3nc-2cc1Nc1ccc(Cl)cc1	-	broth dilution	≤0.5 µg/mL
CN1CCN(c2cc3c(cc2F)c(=O)c(C(=O)O)cn3C2CC2)CC1	16 isolates	-	0.25 µg/mL
Cc1noc(N)c1C(=O)N/N=C/c1ccc(Cl)c(Cl)c1	PCM 672	resazurin	62.5 µg/mL
CC1COc2c(N3CCN(C)CC3)c(F)cc3c(=O)c(C(=O)O)cn1c23	18367	-	6.25 µg/mL
Cc1c(F)c(N2CCNC(C)C2)cc2c1c(=O)c(C(=O)O)cn2C1CC1	20 strains	-	25 µg/mL
Cc1noc2nc(C)n(/N=C/c3ccc(Cl)cc3)c(=O)c12	PCM 672	resazurin	>100 µg/mL
C[C@H]1C[C@H](N)CN1c1cc2c(cc1F)c(=O)c(C(=O)O)cn2-c1ccc(F)cc1F	25 isolates	-	>8 µg/mL
Cc1noc2nc(C)n(/N=C/c3ccc(C(F)(F)F)cc3)c(=O)c12	PCM 672	resazurin	>100 µg/mL
COc1ncccc1Nc1cc2nc3ccccc3n(-c3ccc(OC(F)(F)F)cc3)c-2cc1=NC1CCC(OC)CC1	-	fluorescence	0.688 µg/mL

The last 2 rows once more:

SMILES	strain	read by	value
Cc1noc2nc(C)n(/N=C/c3ccc(C(F)(F)F)cc3)c(=O)c12	PCM 672	resazurin	>100 µg/mL
COc1ncccc1Nc1cc2nc3ccccc3n(-c3ccc(OC(F)(F)F)cc3)c-2cc1=NC1CCC(OC)CC1	-	fluorescence	0.688 µg/mL

Blank or dashed fields: not listed here. MIC50, MIC90 and the like: level of inhibition, or share of isolates inhibited.